Experimental data published in patent publication US20180360953A1 (priority 2015, published 2018).

Test system: Bacillus anthracis lethal toxin
Test: i.p. alum-adsorbed vaccine with Alvelestat, lethal toxin in vitro macrophage toxicity assay
Conditions: Alvelestat 100 or 200 μM, Day 21

## Cc1c(-c2ccnn2C)cc(C(=O)NCc2ccc(S(C)(=O)=O)cn2)c(=O)n1-c1cccc(C(F)(F)F)c1 [Alvelestat, alvelestat]
  Serum anti-PA neutralizing Ab responses: enhanced neutralizing activity
